This note sets out measurements from paper PMC4752478, “Probing the Catalytic Mechanism of Vibrio harveyi GH20 β-N-Acetylglucosaminidase by Chemical Rescue” (PLoS ONE, 2016).

Chains of the proteins cited; added tags and fusions are not shown. Residues count along the entry.
UniProt D9ISE0, 1-642 limits assumed: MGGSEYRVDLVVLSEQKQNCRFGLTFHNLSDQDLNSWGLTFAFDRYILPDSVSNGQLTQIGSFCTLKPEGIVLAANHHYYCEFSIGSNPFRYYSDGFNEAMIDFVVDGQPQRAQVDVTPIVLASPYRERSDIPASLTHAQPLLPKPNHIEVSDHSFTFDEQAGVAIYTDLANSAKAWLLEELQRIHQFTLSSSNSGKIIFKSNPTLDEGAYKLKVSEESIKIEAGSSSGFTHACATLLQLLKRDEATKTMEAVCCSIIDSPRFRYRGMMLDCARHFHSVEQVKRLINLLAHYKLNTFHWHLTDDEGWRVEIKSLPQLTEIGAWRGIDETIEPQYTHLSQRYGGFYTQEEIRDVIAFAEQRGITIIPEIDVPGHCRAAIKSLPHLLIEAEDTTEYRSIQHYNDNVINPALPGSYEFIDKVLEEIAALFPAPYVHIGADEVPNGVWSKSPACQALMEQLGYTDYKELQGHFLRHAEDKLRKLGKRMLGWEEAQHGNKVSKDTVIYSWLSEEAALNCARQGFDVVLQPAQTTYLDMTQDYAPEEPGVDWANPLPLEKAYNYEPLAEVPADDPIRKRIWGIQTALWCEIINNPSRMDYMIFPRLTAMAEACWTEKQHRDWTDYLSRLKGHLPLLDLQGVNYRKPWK

Each structure is given as a SMILES string.

In the assay the target is VhGlcNAcase (Vibrio harveyi, UniProt D9ISE0). As to conditions: 1 M.

Regarding `[N-]=[N+]=N`, the activity is 5%.
